The test system of one series is HRV serotype 87. In words: Antirhinoviral H1-HeLa cell culture assay (XTT), HRV-87. It is filed as cell-based, human rhinovirus. Conditions: therapeutic index CC50/EC50, HRV (87). The method, then:
(§1) Antirhinoviral H1-HeLa Cell Culture Assay
(§2) In this cell protection assay, the ability of compounds to protect cells against HRV infection was measured by the XTT dye reduction method, which is described in Weislow et al., J. Natl. Cancer Inst. 1989, vol. 81, 577-586.
(§3) H1-HeLa cells were infected with HRV-14 at a multiplicity of infection (m.o.i.) of 0.13 (virus particles/cell) or mock-infected with medium only. Infected or mock-infected cells were resuspended at 8×10^5 cells per mL, and incubated with appropriate concentrations of the compounds to be tested. Two days later, XTT/PMS was added to test plates and the amount of formazan produced was quantified spectrophotometrically at 450/650 nm. The EC50 value was calculated as the concentration of compound that increased the percentage of formazan production in compound-treated, virus-infected cells to 50% of that produced by compound-free, mock-infected cells. The 50% cytotoxic dose (CC50) was calculated as the concentration of compound that decreased the percentage of formazan produced in compound-treated, mock-infected cells to 50% of that produced by compound-free, mock-infected cells. The therapeutic index (TI) was calculated by dividing the CC50 value by the EC50 value.
(§4) All strains of human rhinovirus (HRV) for use in this assay were purchased from American Type Culture Collection (ATCC), except for HRV serotype-14 (produced from the infectious cDNA clone constructed by Dr. Robert Rueckert, Institute for Molecular Virology, University of Wisconsin, Madison, Wis.). HRV stocks were propagated and viral assays were performed in H1-HeLa cells (ATCC). Cells were grown in minimal essential medium with 10% fetal bovine serum, available from Life Technologies (Gaithersburg, Md.).
(§5) The compounds were tested against control compounds WIN 51711, WIN 52084, and WIN 54954 (obtained from Sterling-Winthrop Pharmaceuticals), Pirodavir (obtained from Janssen Pharmaceuticals), and Pleconaril (prepared according to the method described in Diana et al., J. Med. Chem 1995, vol. 38, 1355). […]
For orientation: Tetrazolium assays rely on reduction of a dye to a coloured formazan, in cell work by metabolically active cells.

In the next series the test system is HRV serotype 10. In words: Antirhinoviral H1-HeLa cell culture assay (XTT), HRV-10. It counts as cell-based, human rhinovirus. The settings on record: therapeutic index CC50/EC50, HRV (10). The method, then: as §1, §2, §3, §4
(§6) The compounds were tested against control compounds WIN 51711, WIN 52084, and WIN 54954 (obtained from Sterling-Winthrop Pharmaceuticals), Pirodavir (obtained from Janssen Pharmaceuticals), and Pleconaril (prepared according to the method described in Diana et al., J. Med. Chem 1995, vol. 38, 1355). Antiviral data obtained for the test compounds are shown in Tables 1 and 3, where all data are for HRV serotype-14 unless otherwise noted in parentheses.

For another series, the system named is HRV serotype 39. In words: Antirhinoviral H1-HeLa cell culture assay (XTT), HRV-39. It is filed as cell-based, human rhinovirus. Conditions: therapeutic index CC50/EC50, HRV (39). The method, then:
as §1, §2, §3, §4, §6

In another series the test system is HRV serotype 38. Put plainly: Antirhinoviral H1-HeLa cell culture assay (XTT), HRV-38. It counts as cell-based, human rhinovirus. Conditions: therapeutic index CC50/EC50, HRV (38). The method, then:
as §1, §2, §3, §4, §5

Another series concerns HRV serotype 30. In words: Antirhinoviral H1-HeLa cell culture assay (XTT), HRV-30. It is filed as cell-based, human rhinovirus. The settings on record: therapeutic index CC50/EC50, HRV (30). The method, then:
as §1, §2, §3, §4, §6

Another series deals with HRV serotype 16. In words: Antirhinoviral H1-HeLa cell culture assay (XTT), HRV-16. It is filed as cell-based, human rhinovirus. The settings on record: therapeutic index CC50/EC50, HRV (16). As for the experimental part: as §1, §2, §3, §4, §6
The next series deals with HRV serotype 25. Put plainly: Antirhinoviral H1-HeLa cell culture assay (XTT), HRV-25. The settings on record: therapeutic index CC50/EC50, HRV (25). It counts as cell-based, human rhinovirus. As for the experimental part: as §1, §2, §3, §4, §5
The subject of series [1] is Echovirus type 11 (EV 11). In words: Anti-echoviral cell culture assay (XTT), EV 11. It counts as cell-based. The settings on record: therapeutic index CC50/EC50, EV-11. The method, then:
Anti-Echoviral and -Enteroviral Cell Culture Assays
Echovirus type 11 (EV 11) and enterovirus type 70 (EV 70) were purchased from ATCC (Rockville, Md.). Virus stocks were propagated and antiviral assays were performed in MRC-5 cells (ATCC). Cells were grown in minimal essential medium with 10% fetal bovine serum (Life Technologies, Gaithersburg, Md.).
The ability of compounds to protect cells against either EV 11 or EV 70 infection was measured by the XTT dye reduction method (Weislow et al., J. Natl. Cancer Inst. 1989, vol. 81, 577-586). MRC-5 cells were infected with EV 11 or EV 70 at an m.o.i. of 0.003 or 0.004, respectively, or mock-infected with medium only. Infected or uninfected cells were added at 1×10^4 cells per well and incubated with appropriate concentrations of compound. Four days later, XTT/PMS was added to test plates, and the amount of formazan produced was quantified spectrophotometrically at 450/650 nm. The EC50 was calculated as the concentration of compound that increased the formazan production in compound-treated, virus-infected cells to 50% of that produced by compound-free, uninfected cells. The 50% cytotoxic dose (CC50) was calculated as the concentration of compound that decreased formazan production in compound-treated, uninfected cells to 50% of that produced in compound-free, uninfected cells. The therapeutic index (TI) was calculated by dividing the CC50 by the EC50.
The compounds were tested against control compounds Pirodavir (obtained from Janssen Pharmaceuticals) and Pleconaril (prepared according to Diana et al., J. Med. Chem. 1995, vol. 38, 1355). Antiviral data obtained for the test compounds against strain EV 11 and EV 70 are shown below in Table 5.

Series [2] relates to Coxsackievirus type B3 (CVB-3). Put plainly: Anticoxsackieviral cell culture assay (XTT), CVB-3. Conditions: therapeutic index CC50/EC50, CVB-3. It counts as cell-based. The method, then:
Anticoxsackieviral Cell Culture Assay
Coxsackievirus types A-21 (CAV-21) and B3 (CVB-3) were purchased from American Type Culture Collection (ATCC, Rockville, Md.). Virus stocks were propagated and antiviral assays were performed in H1-HeLa cells (ATCC). Cells were grown in minimal essential medium with 10% fetal bovine serum (Life Technologies, Gaithersburg, Md.).
The ability of compounds to protect cells against either CAV-21 or CVB-3 infection was measured by the XTT dye reduction method. This method is described in Weislow et al., J. Natl. Cancer Inst. 1989, vol. 81, 577-586. H1-HeLa cells were infected with CAV-21 or CVB-3 at a multiplicity of infection (m.o.i.) of 0.025 or 0.075, respectively, or mock-infected with medium only. H1-HeLa cells were plated at 4×10^4 cells per well in a 96-well plate and incubated with appropriate concentrations of the test compound. One day (CVB-3) or two days (CAV-21) later, XTT/PMS was added to test plates and the amount of formazan produced was quantified spectrophotometrically at 450/650 nm. The EC50 was calculated as the concentration of compound that increased the formazan production in compound-treated, virus-infected cells to 50% of that produced by compound-free, uninfected cells. […] The therapeutic index (TI) was calculated by dividing the CC50 by the EC50. […]

Molecules are shown by their SMILES.

As for `CCOC(=O)/C=C/[C@H](C[C@@H]1CCNC1=O)NC(=O)[C@@H](CC(=O)[C@@H](NC(=O)c1cc(C)on1)C(C)C)Cc1ccc(F)cc1` [(B-2), Ethyl-3-{(5′-Methylisoxazole-3′-carbonyl)-L-ValΨ(COCH2)-L-(4-F-Phe)-L-((S)-Pyrrol-Ala)}-E-Propenoate], the TI in the series with HRV serotype 87 was above 1666; in the series with HRV serotype 10, above 5000; in the series with HRV serotype 39, above 2000; in the series with HRV serotype 38 it was above 1428; in the series on HRV serotype 30 it was above 2500; in the series with HRV serotype 16, above 10000. The results for the TI (in the series on HRV serotype 25; in series [1]; in series [2]) were above 3333, above 10000 and above 555, respectively.
